Share of PSTVd loop 6 variants by leaf site

Region: loop 6 of PSTVd (intermediate strain), upper and lower strand joined, each 5' to 3', the first 5 letters being the upper strand, closing pairs included. Wild type: UGACCGCGAG. Varied positions (N): UNNNCGNNNG.

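A pool of all variants was put on leaves of three Nicotiana benthamiana plants. Samples came from the inoculated region at 5 days, the leaf margin at 10 and upper systemic leaves at 12.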

Numbers give reads per thousand; 0 = not seen among the reads, higher = more abundant. Each value is the mean of three plants. "Pool" is the share in the plasmid pool used as inoculum, on the same scale. The inoculated region was read from the minus strand, the other sites from the plus strand. IR is the inoculated region, LM the leaf margin, Sys the systemic leaves.

UUUCCGAGAG (pool 0.196): IR 0.179; LM 0.0309; Sys 0.00599.
UCUGCGACGG (pool 0.353): IR 0.0596; LM 0; Sys 0.
UCCCCGGAGG (pool 0.209): IR 0.108; LM 0; Sys 0.
UAGACGUAUG (pool 0.235): IR 0.0890; LM 0.118; Sys 0.
UACCCGGCAG (pool 0.157): IR 0.0603; LM 0.00773; Sys 0.
UAGCCGAAGG (pool 0.196): IR 0.101; LM 0.00920; Sys 0.
UUUUCGAAAG (pool 0.105): IR 0.107; LM 0; Sys 0.
UACCCGGAGG (pool 0.144): IR 0.101; LM 0; Sys 0.
UGGCCGGAGG (pool 0.144): IR 0.138; LM 0.00773; Sys 0.
UGGCCGGCGG (pool 0.196): IR 0.150; LM 0; Sys 0.
UCUUCGUCAG (pool 0.248): IR 0.0889; LM 0.0252; Sys 0.
UGUUCGUUGG (pool 0.301): IR 0.0826; LM 0; Sys 0.
UCCACGUCAG (pool 0.248): IR 0.0946; LM 0.00920; Sys 0.
UUGGCGUCCG (pool 0.314): IR 0.106; LM 0; Sys 0.00684.
UUGACGCAAG (pool 0.118): IR 0.199; LM 0.00773; Sys 0.
UCUACGGUUG (pool 0.235): IR 0.107; LM 0.00773; Sys 0.
UGCCCGAUCG (pool 0.301): IR 0.0894; LM 0.0247; Sys 0.
UUUCCGCAUG (pool 0.196): IR 0.100; LM 0.00920; Sys 0.
UAUACGGUUG (pool 0.196): IR 0.156; LM 0; Sys 0.
UUCGCGUGGG (pool 0.288): IR 0.0777; LM 0.00841; Sys 0.
UCAUCGUAAG (pool 0.0654): IR 0.0967; LM 0; Sys 0.
UUUUCGUUCG (pool 0.105): IR 0.101; LM 0; Sys 0.
UUGUCGGCUG (pool 0.431): IR 0.0842; LM 0.00841; Sys 0.
UAGACGAAUG (pool 0.431): IR 0.102; LM 0.0169; Sys 0.00684.
UGCGCGCGCG (pool 0.209): IR 0.0944; LM 0; Sys 0.
UGUUCGCCUG (pool 0.248): IR 0.0529; LM 0.0176; Sys 0.
UCAUCGACUG (pool 0.235): IR 0.0893; LM 0; Sys 0.
UGGACGUACG (pool 0.235): IR 0.0949; LM 0; Sys 0.
UAACCGAAGG (pool 0.0654): IR 0.0845; LM 0; Sys 0.
UGAACGUUCG (pool 0.196): IR 0.192; LM 0.0276; Sys 0.
UUGACGCGGG (pool 0.340): IR 0.107; LM 0.00920; Sys 0.

The first 4 entries again:

{"sequence": "UUUCCGAGAG", "pool": "0.196", "IR": 0.179, "LM": 0.0309, "Sys": 0.00599}
{"sequence": "UCUGCGACGG", "pool": "0.353", "IR": 0.0596, "LM": 0, "Sys": 0}
{"sequence": "UCCCCGGAGG", "pool": "0.209", "IR": 0.108, "LM": 0, "Sys": 0}
{"sequence": "UAGACGUAUG", "pool": "0.235", "IR": 0.0890, "LM": 0.118, "Sys": 0}

With 36,220-57,551 reads a sample, very low values are single reads. The authors trace changes outside the varied positions to PCR and sequencing errors or to mutation in the plant; presence does not show that a variant is infectious alone. For reference, wild type rose from 20.7 per thousand in the pool to 195, 198, 203 (inoculated region), 629, 591, 734 (leaf margin) and 942, 870, 868 (systemic leaves).

Source: Wu et al. 2024 (doi:10.1371/journal.ppat.1012142), supplementary data.